Measured values from several laboratories, pooled; numbers as filed in NIAID ChemDB.

Common to all: tests in culture; species: Candida parapsilosis; measure: MIC

Rows are shuffled and stem from different studies.

C[C@@H]1CC(=O)N(c2ccc(Cl)cc2)C1=O ; strain: CCC 124-2000 ; read by: broth dilution / turbidity ; value: 125 µg/mL
O=C(CCn1ccnc1)c1cccc2ccccc12 ; strain: RTCC 1018 ; read by: broth dilution ; value: 64 µg/mL
Cc1ccc(-c2nnc(SCC(O)(Cn3cncn3)c3ccc(F)cc3F)n2N)cc1 ; strain: ATCC 22019 ; read by: broth dilution ; value: >64 µg/mL
CC1C(=O)N(c2ccccc2)C(=O)C1C ; strain: CCC 124-2000 ; read by: broth dilution / turbidity ; value: 62.5 µg/mL
O=C(CCn1ccnc1)c1cccc(C(O)c2ccc(Cl)c(Cl)c2)c1 ; strain: RTCC 1079 ; read by: broth dilution ; value: 32 µg/mL
C[C@@H](c1ncncc1F)[C@](O)(Cn1cncn1)c1ccc(F)cc1F ; strain: ATCC 96139 ; read by: broth dilution ; value: 0.0625 µg/mL
Nn1c(SCC(O)(Cn2cncn2)c2ccc(Cl)cc2Cl)nnc1-c1ccc(Cl)cc1Cl ; strain: ATCC 22019 ; read by: broth dilution ; value: 32 µg/mL
Cc1ccc(C(O)c2cccc(C(=O)CCn3ccnc3)c2)cc1 ; strain: RTCC 1079 ; read by: broth dilution ; value: 64 µg/mL
CC1C(=O)N(CCCCc2ccccc2)C(=O)C1C ; strain: CCC 124-2000 ; read by: broth dilution / turbidity ; value: 125 µg/mL
O=C(CCn1ccnc1)c1ccc(Br)cc1 ; strain: RTCC 1079 ; read by: broth dilution ; value: 64 µg/mL
O=C1C(=O)c2ccccc2C2=C1CC(CI)O2 ; strain: Clinical isolate ; read by: broth dilution ; value: 32 µg/mL
O=c1cc(-c2ccc(O)c(O)c2)oc2cc(O)c([C@@H]3O[C@H](CO)[C@@H](O)[C@H](O)[C@H]3O)c(O)c12 ; strain: ATCC 22019 ; read by: broth dilution ; value: 125 µg/mL
CC1CC(=O)N(c2ccc(F)cc2)C1=O ; strain: CCC 124-2000 ; read by: broth dilution / turbidity ; value: 250 µg/mL
C[C@H]1[C@H](O)[C@@H](C)/C=C/C=C/C=C/C=C/C=C/C=C/C=C/[C@H](O[C@@H]2O[C@H](C)[C@@H](O)[C@H](N)[C@@H]2O)C[C@@H]2O[C@](O)(C[C@@H](O)C[C@@H](O)CC[C@H](O)[C@@H](O)C[C@@H](O)CC(=O)O[C@H]1C)C[C@H](O)[C@H]2C(=O)O ; strain: ATCC 22019 ; read by: broth dilution ; value: 0.0625 µg/mL
CC(C)(O)c1cn(-c2ccc(Cl)cc2)nn1 ; strain: URM 4261 ; read by: broth dilution ; value: 256 µg/mL
OC(CCn1ccnc1)c1cccc(C(O)c2ccc(Br)cc2)c1 ; strain: RTCC 1018 ; read by: broth dilution ; value: >64 µg/mL
Nn1c(SCC(O)(Cn2cncn2)c2ccc(F)cc2F)nnc1-c1ccncc1 ; strain: ATCC 22019 ; read by: broth dilution ; value: >64 µg/mL
CCCCCCCCCCCCCCCC(=O)NC(CCCCN)C(=O)NC(CCCCN)C(N)=O ; strain: ATCC 4796 ; read by: broth dilution ; value: 1 µg/mL
OC(CCn1ccnc1)c1ccc(-c2ccccc2)cc1 ; strain: RTCC 1079 ; read by: broth dilution ; value: 64 µg/mL
Nn1c(SCC(O)(Cn2cncn2)c2ccc(Cl)cc2Cl)nnc1-c1ccc(F)cc1 ; strain: ATCC 22019 ; read by: broth dilution ; value: >64 µg/mL
C[C@@H]1CC(=O)N(c2ccccc2)C1=O ; strain: CCC 124-2000 ; read by: broth dilution / turbidity ; value: 62.5 µg/mL
O=C(CCn1ccnc1)c1ccc2ccccc2c1 ; strain: RTCC 1018 ; read by: broth dilution ; value: 32 µg/mL

The last 2 rows once more:

SMILES,strain,read by,value
C[C@@H]1CC(=O)N(c2ccccc2)C1=O,CCC 124-2000,broth dilution / turbidity,62.5 µg/mL
O=C(CCn1ccnc1)c1ccc2ccccc2c1,RTCC 1018,broth dilution,32 µg/mL